Protein sequences, listed by entry. Tags and fused reporters are not part of them. Residues count along the entry.
UniProt Q51817, 229-737 limits assumed: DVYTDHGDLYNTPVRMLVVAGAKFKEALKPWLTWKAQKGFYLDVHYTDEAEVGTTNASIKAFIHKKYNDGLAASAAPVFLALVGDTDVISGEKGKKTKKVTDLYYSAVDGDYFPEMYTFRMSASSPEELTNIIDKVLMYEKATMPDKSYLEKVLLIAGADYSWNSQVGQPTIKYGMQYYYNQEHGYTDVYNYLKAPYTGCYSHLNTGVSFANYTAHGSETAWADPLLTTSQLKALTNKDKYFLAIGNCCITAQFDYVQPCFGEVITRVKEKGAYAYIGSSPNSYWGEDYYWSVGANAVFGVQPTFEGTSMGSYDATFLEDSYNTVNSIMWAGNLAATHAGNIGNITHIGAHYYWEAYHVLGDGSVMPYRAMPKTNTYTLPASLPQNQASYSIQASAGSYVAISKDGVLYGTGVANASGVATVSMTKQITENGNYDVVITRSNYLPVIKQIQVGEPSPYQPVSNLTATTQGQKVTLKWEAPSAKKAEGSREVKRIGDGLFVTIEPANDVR

In patent US10730826B2, “Ketone inhibitors of lysine gingipain” (CORTEXYME, INC., priority 2016, dated 2020):

Molecular target: Kgp in P. gingivalis W83 bacteria (Porphyromonas gingivalis (Bacteroides gingivalis), UniProt Q51817)
Assay: Bacterial smear staining with gingipain activity probes
Type: cell-based
Conditions: 1 μM probe, 1 hr, 37° C.; no signal in Kgp knockout

CC1=CC(C)=[N+]2C1=Cc1ccc(CCC(=O)NCc3cn(-c4cccc(C(=O)NC(CCCCN)C(=O)COc5c(F)cc(CNC(=O)c6ccc(/N=N/c7ccc(N(C)C)cc7)cc6)cc5F)c4)nn3)n1[B-]2(F)F (stereo not shown)
fluorescence of W83 bacteria after exposure to probe: fluorescent
